Reference: patent US11737461B2, “Citrate perhydrates and uses thereof” (BIOREM ENGINEERING SA, priority 2018, dated 2023)

Test system: Staphylococcus aureus MRSA

In the case of “Povidone-iodine [PVP-I (Povidone-iodine)]”, the “MIC” value was 17.13 mM, the MIC % was 0.625% and the MIC value was 6250 µg/mL.

“anhydrous disodium citrate monoperhydrate [disodium citrate perhydrate]” was tested, and the “MIC” value was 0.12 mM, the MIC % was 0.003% and the MIC value was 30 µg/mL. The “growth-inhibiting efficacy (MIC), times greater than that of hydrogen peroxide alone” value (vs hydrogen peroxide alone) was 230 times and the “growth-inhibiting efficacy (MIC), times greater than sodium citrate” value (vs sodium citrate) was 103 times.
